Anti-infective test results gathered from many reports (values: NIAID ChemDB through PubChem).

Shared fields: tests on isolated targets; agent: HIV-1; protein: Integrase; endpoint: IC50

Conditions beyond the fields shown may differ between rows. a–b is a range or a potency band. Blank or dashed fields: not listed here. ICn: concentration for n% inhibition.

smiles | method | value
O=C1OC(=O)c2cc(S(=O)(=O)c3ccc4c(c3)C(=O)OC4=O)ccc21 | strand transfer | 18.6 µM
O=C1Sc2cc3ccccc3cc2C(=O)N2CSC[C@@H]12 | strand transfer | 88 µM
O=C1c2ccccc2C(=O)c2c1cc(S(=O)(=O)O)c(O)c2O | - | 3 µM
Oc1ccc(/C=C/c2ncc3ccccc3n2)cc1O | 3′ processing | 20.8 µM
O=C(O)C(=O)CC(=O)c1cccn1CCCc1ccccc1 | strand transfer | 0.5 µM
O=[N+]([O-])c1ccccc1S(=O)(=O)c1ccccc1[N+](=O)[O-] | strand transfer | >100 µM
COc1ccc(/C=C/C(=O)O[C@H]2[C@H](O[C@@H]3O[C@@H](C)[C@H](O)[C@@H](O)[C@H]3O)[C@@H](O)[C@H](OCCc3ccc(O)c(O)c3)O[C@@H]2CO)cc1O | 3′ processing | 29.4 µM
O=C(O)C(=O)/C=C(\O)c1ccc2cc(O)c(O)cc2c1 | 3′ processing | 1.9 µM
CN1CCN(Cc2ccc3n2C(=O)c2ccccc2SC3c2ccccc2)CC1 | 3′ processing | >1000 µM
COc1c2c3c(c4c1OCO4)-c1c(ccc(O)c1OC)C[C@@H]3NCC2 | - | >100 µM
O=C1Sc2ccccc2C(=O)N2CCCCC12 | 3′ processing | 450 µM
O=S(=O)(c1ccc(Cl)c(Cl)c1)c1ccc(Cl)c(Cl)c1 | strand transfer | >100 µM
COC(=O)/C(C)=C1\C(=O)O[C@]2(C)[C@H]([C@H]1O)[C@@](C)(CO)[C@@H]1C[C@@H]12 | - | >100 µM
O=C(O)C(=O)/C=C(\O)c1ccccc1O | strand transfer | >100 µM
O=C(O)c1ccc2ccc(/C=C/c3ccc(O)c(O)c3)nc2c1O | 3′ processing | 2.4 µM
O=c1oc2c(O)c(O)cc3c(=O)oc4c(O)c(O)cc1c4c23 | - | 5 µM
Oc1ccc(/C=C/c2ncc3cccc(O)c3n2)cc1O | 3′ processing | 57.1 µM
O=C(CCCN(C1CCCCC1)C1CCCCC1)Nc1ccc(S(=O)(=O)c2ccc(NC(=O)CCCN(C3CCCCC3)C3CCCCC3)cc2)cc1 | 3′ processing | >100 µM
C=C1[C@H]2C[C@H]2[C@]2(C)C[C@@H]3OC(=O)C(C)=C3[C@H](OC(C)=O)[C@@H]12 | - | >100 µM
O=S(=O)(SC(Cl)(Cl)Cl)c1cccc(S(=O)(=O)c2cccc(S(=O)(=O)SC(Cl)(Cl)Cl)c2)c1 | 3′ processing | 20.7 µM
Oc1ccc(/C=C/c2ncc3cccc(O)c3n2)cc1 | 3′ processing | >>200 µM
O=C(NCCCl)Nc1ccc(S(=O)(=O)c2ccc([N+](=O)[O-])cc2)cc1 | strand transfer | >100 µM
O=C1Sc2ccccc2C(=O)N2CS(=O)CC12 | 3′ processing | 192 µM
C[C@@H]1[C@@H](O)[C@H](C)C[C@@H]2C=C[C@H](C)[C@H](/C=C/C=C/C(=O)O)[C@@H]12 | absorbance | 10 µM
O=c1cc2ccccc2c(O)n1O | strand transfer | 2.89 µM
Nc1ccc(S(=O)(=O)c2ccc(N)cc2)cc1 | 3′ processing | >100 µM
COc1ccc(/C=C/C(=O)O[C@H]2[C@H](O[C@@H]3O[C@@H](C)[C@H](O)[C@@H](O)[C@H]3O)[C@@H](O)[C@H](OCCc3ccc(O)c(OC)c3)O[C@@H]2CO)cc1O | 3′ processing | >100 µM
COC(=O)C(=O)/C=C(\O)c1ccc(O)c(O)c1 | strand transfer | 84.4 µM
O=C1Sc2ccc(Cl)cc2C(=O)N2CCSC12 | 3′ processing | 125 µM
COc1cc(/C=C/c2ccc(OC)c(OC)c2)oc(=O)c1 | strand transfer | >100 µM
O=c1oc2ccccc2c(O)c1C(c1ccc(Cl)cc1)c1c(O)c2ccccc2oc1=O | 3′ processing | 27.4 µM
COc1cc(C)cc2c1C(=O)c1c(cc(O)c(O)c1O)C2=O | absorbance | 6 µM
COc1ccc(/C=C/c2ncc3ccccc3n2)cc1O | 3′ processing | >>200 µM
O=C(O)C(=O)/C=C(\O)c1ccc2ccccc2c1 | 3′ processing | >100 µM
O=c1cc(O)cc(/C=C/c2ccc(O)c(O)c2)o1 | absorbance | 2 µM
C/C=C/[C@@H]1C=C[C@@H]2C[C@H](C)CC[C@H]2[C@]1(C)/C(O)=C1/C(=O)[C@@H](CO)N(C)C1=O | strand transfer | 7–15 µM
O=[N+]([O-])c1cc(S(=O)(=O)c2ccc(S)c([N+](=O)[O-])c2)ccc1S | 3′ processing | 2.9 µM
O=C(/C=C/c1ccc(O)c(O)c1)O[C@@H]1CC(O)(C(=O)O)C[C@@H](OC(=O)/C=C/c2ccc(O)c(O)c2)C1O | 3′ processing | 0.33 µg/mL
C/C=C/C=C/[C@H]1C(C)=CC2C[C@@H](C)CC[C@@H]2[C@@]1(C)/C(O)=C1/C(=O)[C@@H](CO)N(C)C1=O | strand transfer | 15–20 µM
COc1cccc2cnc(/C=C/c3ccc(O)c(O)c3)nc12 | 3′ processing | >>200 µM
COc1c(O)ccc2c1-c1c3c(cc4c1[C@H](C2)NCC4)OCO3 | - | >100 µM
C[C@@H]1O[C@@H](O[C@@H]2[C@@H](O)[C@H](OCCc3ccc(O)c(O)c3)O[C@H](CO)[C@H]2OC(=O)/C=C/c2ccc(O)c(O)c2)[C@H](O)[C@H](O)[C@H]1O | 3′ processing | 7.8 µM
O=C(Nc1ccccc1)C(=S)Nn1c(O)c(/C=C2\C=Nc3ccccc32)sc1=S | 3′ processing | >100 µM
O=c1oc2ccccc2c(O)c1C(c1ccc(N(CCCl)CCCl)c([N+](=O)[O-])c1)c1c(O)c2ccccc2oc1=O | strand transfer | 4 µM
COC(=O)C(=O)OC1(C(=O)O)C[C@@H](OC(=O)/C=C/c2ccc(O)c(O)c2)C(O)[C@H](OC(=O)/C=C/c2ccc(O)c(O)c2)C1 | disintegration | 0.57 µg/mL
CN(C)Cc1ccc2n1C(=O)c1ccccc1SC2c1ccc(F)cc1 | strand transfer | >1000 µM

A second listing of 4 rows from above:

COc1cc(/C=C/c2ccc(OC)c(OC)c2)oc(=O)c1 ; method: strand transfer ; value: >100 µM
O=C1c2ccccc2C(=O)c2c1cc(S(=O)(=O)O)c(O)c2O ; value: 3 µM
COc1ccc(/C=C/c2ncc3ccccc3n2)cc1O ; method: 3′ processing ; value: >>200 µM
Oc1ccc(/C=C/c2ncc3cccc(O)c3n2)cc1 ; method: 3′ processing ; value: >>200 µM